# Earlier results as cited in patent US9078897B1, “Concentrated, inhalable antibiotic formulation” (ARADIGM CORPORATION, priority 2006, dated 2015).
# Test system: P. aeruginosa
# Settings: cited from earlier work
smiles,measurement,setting,value
NC[C@H]1O[C@H](O[C@H]2[C@H](O)[C@@H](O[C@H]3O[C@H](CO)[C@@H](O)[C@H](N)[C@H]3O)[C@H](N)C[C@@H]2N)[C@H](N)C[C@@H]1O [tobramycin],patients with resistant isolates,"continuous therapy, after 3 months (from ~10%)",80%
same,patients with multiresistant P. aeruginosa,"intermittent inhaled therapy, after 18 months (14% at baseline)",23%
